In this data set the test system is calf-thymus (CT) DNA. Nature of the data set: CT DNA interaction by UV-visible spectroscopy. To be noted: DMSO solution, upon addition of CT DNA.

For the compound `Cc1nnc(S)s1` [mtdztH, 5-methyl-1,3,4-thiadiazole-2-thiol, reference compound], the “blue/red shift of λmax, Δλ” value stood at 0 nm.

For the compound [Ag(mtdztH)(dppe)(NO3)]n [Compound 4], the “blue/red shift of λmax, Δλ” value stood at 0 nm.
